Anti-infective test results gathered from many reports (values: NIAID ChemDB through PubChem).

ECn is the concentration giving n% inhibition of infection, replication or growth. A number after MIC or MFC names an inhibition level or a share of isolates. ICn: concentration for n% inhibition. Fold resistance has wild type as its base. Percent inhibition refers to the dose given; in toxicity tests it is the harm to the cells. Rows are shuffled and stem from different studies.

O=C(Nc1nnc(NCc2ccncc2)s1)c1ccc2c(c1)C(=O)OC2=O ; test: target ; agent: Human cytomegalovirus ; protein: Polymerase ; measure: IC50 ; value: <25 µM
CCO/N=C/c1ccc(OCCC2CCN(c3ccc(C)nn3)CC2)cc1 ; test: culture ; agent: Rhinovirus ; strain: A2#58 (ICAM-1 receptor group 50) ; cells: KB ; method: neutral red ; measure: EC50 ; value: 0.001 µM
O=C(Nc1nnc(NCc2ccc(Cl)c(Cl)c2)s1)c1c(Cl)cccc1Cl ; test: target ; agent: Human cytomegalovirus ; protein: Polymerase ; measure: IC50 ; value: <25 µM
CC1=CC(=O)c2c(O)cccc2C1=O ; test: culture ; agent: Encephalitozoon intestinalis ; cells: RK-13 ; measure: inhibition ; tested at: 1 µg/mL ; value: 64.9%
O=C(Nc1nnc(NCCc2cccs2)s1)c1c(Cl)cccc1Cl ; test: target ; agent: Human cytomegalovirus ; protein: Polymerase ; measure: IC50 ; value: <25 µM
COc1cc2c(c(OC)c1OC)-c1ccc(OC)c(=O)cc1[C@@H](NC(C)=O)CC2 ; test: culture ; agent: Encephalitozoon intestinalis ; cells: RK-13 ; measure: inhibition ; tested at: 0.01 µg/mL ; value: 43.1%
Cc1ccnc2c1NC(=O)c1cccnc1N2C1CC1 ; test: culture ; agent: HIV-1 ; changes: RT-M41L T215Y K103N ; cells: MT-4 ; measure: EC95 ; value: >3 µM
C#CC[C@@H](C(=O)N[C@H](/C=C/C(=O)OCC)C[C@@H]1CCNC1=O)n1cccc(NC(=O)c2cc(C)on2)c1=O ; test: culture ; agent: Rhinovirus ; strain: Serotype 49 ; cells: H1-HELA ; method: cytopathic effect / XTT ; measure: EC50 ; value: 0.017 µM
COC(=O)Nc1nc2ccc(C(=O)c3ccccc3)cc2[nH]1 ; test: culture ; agent: Encephalitozoon intestinalis ; cells: RK-13 ; measure: inhibition ; tested at: 0.1 µg/mL ; value: 69.2%
CC[C@H]1C(=O)Nc2ccc(F)cc2N1C(=O)OC(C)C ; test: target ; agent: HIV ; changes: RT-N137S ; protein: Reverse transcriptase ; method: nucleotide incorporation / radiometric ; measure: fold resistance ; value: 1.8
CCCCCCCCCCCNc1nnc(NC(=O)c2ccc(S(=O)(=O)F)cc2)s1 ; test: target ; agent: Human cytomegalovirus ; protein: Polymerase ; measure: IC50 ; value: <25 µM
CO[C@@H]1[C@H](OC(=O)NC(=O)CCl)CC[C@]2(CO2)[C@H]1[C@@]1(C)O[C@@H]1CC=C(C)C ; test: culture ; agent: Encephalitozoon intestinalis ; cells: RK-13 ; measure: inhibition ; tested at: 1 µg/mL ; value: 84.1%
Cc1cn([C@@H]2O[C@H](CO[Si](C)(C)C(C)(C)C)[C@@]3(OS(=O)(=O)C=C3N)[C@H]2O[Si](C)(C)C(C)(C)C)c(=O)[nH]c1=O ; test: target ; agent: HIV ; changes: RT-P95A ; protein: Reverse transcriptase ; method: nucleotide incorporation / radiometric ; measure: fold resistance ; value: 0.56
O=C(/C=C/c1ccccc1Cl)Nc1nnc(NC2CCCc3ccccc32)s1 ; test: target ; agent: Human cytomegalovirus ; protein: Polymerase ; measure: IC50 ; value: >25 µM
CO[P@](=O)(c1cc(C)cc(/C=C/C#N)c1)c1c(C(N)=O)[nH]c2ccc(Cl)c(F)c12 ; test: host protein ; agent: Human ; protein: DNA polymerase alpha ; measure: IC50 ; value: 145.7 µM
CCSCCNc1nnc(NC(=O)/C=C/c2ccccc2Cl)s1 ; test: target ; agent: Human cytomegalovirus ; protein: Polymerase ; measure: IC50 ; value: >25 µM
C[C@H](Cc1ccc(O)c(O)c1)[C@@H](C)Cc1ccc(O)c(O)c1 ; test: culture ; agent: Candida colliculosa ; strain: CCC 122-2000 ; method: broth dilution ; measure: MIC50 ; value: 125 µg/mL
CCCCCCCC/C=C/CCCCCCCC(=O)Nc1nnc(NCCSCC)s1 ; test: target ; agent: Human cytomegalovirus ; protein: Polymerase ; measure: IC50 ; value: <25 µM
Nc1ncnc2c1ncn2C[C@H](CO)OCP(=O)(O)O ; test: culture ; agent: Adenovirus ; strain: TRIM (TYPE 8) ; method: virus yield ; measure: EC90 ; value: 2 µg/mL
O=C(Nc1nnc(NCCCN2CCCC2=O)s1)c1cc2ccccc2s1 ; test: target ; agent: Human cytomegalovirus ; protein: Polymerase ; measure: IC50 ; value: <25 µM
Nc1ccnc2c1ncn2[C@H]1C=C[C@@H](OCP(=O)(O)O)O1 ; test: culture ; agent: Adenovirus ; strain: adenoid 6 (TYPE 2) ; method: cytopathic effect ; measure: EC50 ; value: 17 µg/mL
CC(C)=CCOc1cc(NC(=S)c2ccoc2C)ccc1Cl ; test: target ; agent: HIV ; changes: RT-N137Q ; protein: Reverse transcriptase ; method: nucleotide incorporation / radiometric ; measure: IC50 ; value: 0.027 µM
COc1cc(NCc2cnc3nc(N)nc(N)c3c2C)cc(OC)c1OC ; test: culture ; agent: Encephalitozoon intestinalis ; cells: RK-13 ; measure: inhibition ; tested at: 0.01 µg/mL ; value: 1%
Nc1nc2c(ncn2CCOCP(=O)(O)O)c(=O)[nH]1 ; test: culture ; agent: Parainfluenza virus ; strain: 14702 (TYPE 3) ; method: virus yield ; measure: EC90 ; value: 10 µg/mL